Test system: liquid culture medium containing a particular microorganism
Assay: Biodegradability according to the OECD method
Conditions: after 28 days, stored at 25° C.

Row | SMILES | Biodegradability (decomposition percent rating)
1 | c1ccc2[nH]nnc2c1 [Benztriazole, reference compound] | x (Biodegradability is less than 5%.)
2 | NC(N)=O [Urea] | ⊚ (Biodegradability is 80% or more.)

From patent publication US20010011515A1, “Anticorrosive agent” (NEC Corporation, priority 2000, published 2001)
